Experimental data taken from patent publication US20060035245, “Modulators of enzymatic nucleic acid elements mobilization” (published 2006).
Protein sequences can lack the tags named with them.

Key:
[1] = target: T1, Tn5 transposase hyperactive mutant (EK54, MA56, LP372) E54K,M56A,L372P (UniProt Q46731); assay: EMSA; details: binding and strand cleavage; 10 mM MgAc, 37 C; EDTA inhibits cleavage; purified recombinant protein; label: fluorescein 5' ends
T1 sequence (looked up, limits assumed): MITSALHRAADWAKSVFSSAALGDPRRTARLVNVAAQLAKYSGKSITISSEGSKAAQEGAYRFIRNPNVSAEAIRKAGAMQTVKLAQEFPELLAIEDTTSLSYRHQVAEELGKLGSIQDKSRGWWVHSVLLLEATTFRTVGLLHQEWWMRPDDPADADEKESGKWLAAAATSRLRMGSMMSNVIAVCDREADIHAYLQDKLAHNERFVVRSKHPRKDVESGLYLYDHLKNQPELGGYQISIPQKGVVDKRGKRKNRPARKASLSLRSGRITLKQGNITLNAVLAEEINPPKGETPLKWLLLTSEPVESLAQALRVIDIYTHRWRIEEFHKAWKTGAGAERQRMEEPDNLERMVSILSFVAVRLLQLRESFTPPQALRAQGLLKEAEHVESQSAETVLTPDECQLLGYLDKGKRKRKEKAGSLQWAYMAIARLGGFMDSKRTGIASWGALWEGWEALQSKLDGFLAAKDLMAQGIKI

[2] = target: T1, Tn5 transposase hyperactive mutant (EK54, MA56, LP372) E54K,M56A,L372P; assay: FP; details: binding and strand cleavage; 10 mM MgAc, 37 C; cleavage inhibited by EDTA while complex retained; purified recombinant protein; label: rhodamine green 5' end of non-transferred strand

Sequence | activity on this sequence [1] | activity on this sequence [2]
GGCCACGACACGCTCCCGCGCTGTCTCTTATACACATCTTGAGTGAGTGAGCATGCATGT (double strand) [60 bp Tn5 substrate (20 bp donor + 40 bp transposon)] | active | 
TGCAGGTCGACTGTCTCTTATACACATCTTGAGTGAGTGAGCATGCATGT (double strand) [50 bp Tn5 substrate (10 bp donor + 40 bp transposon)] |  | active
